Values of other authors in patent US20070259014A1, “Compositions for and Methods for Treating Hiv” (VGX PHARMACEUTICALS, INC., priority 2003, published 2007).
Like-named read-outs stand apart in the source and are kept apart here.

Legend:
[1] = cited from earlier work
[2] = daily oral doses of 1-200 mg (4-30 days), published studies; cited from earlier work

## 11β-(4dimethylaminophenyl)-17β-hydroxy-17-α-(propyl-lynyl)-4,9-dien-3-one [Mifepristone]
[1]; 40 nM Mifepristone
  Mifepristone not protein bound in serum: 2.7%
[1]; 2.5 microM Mifepristone
  Mifepristone not protein bound in serum: 2.4%
[2]
  steady-state drug concentrations in patient serum: 35 to 2300 ng/mL
